This note sets out measurements from ChEMBL document CHEMBL1135602 (J Med Chem, 2002).

By UniProt entry, the sequences of proteins in these tests, tags left out. Where a name states a change or a piece, a line headed by the entry shows the natural chain unless it says otherwise.
UniProt P13922: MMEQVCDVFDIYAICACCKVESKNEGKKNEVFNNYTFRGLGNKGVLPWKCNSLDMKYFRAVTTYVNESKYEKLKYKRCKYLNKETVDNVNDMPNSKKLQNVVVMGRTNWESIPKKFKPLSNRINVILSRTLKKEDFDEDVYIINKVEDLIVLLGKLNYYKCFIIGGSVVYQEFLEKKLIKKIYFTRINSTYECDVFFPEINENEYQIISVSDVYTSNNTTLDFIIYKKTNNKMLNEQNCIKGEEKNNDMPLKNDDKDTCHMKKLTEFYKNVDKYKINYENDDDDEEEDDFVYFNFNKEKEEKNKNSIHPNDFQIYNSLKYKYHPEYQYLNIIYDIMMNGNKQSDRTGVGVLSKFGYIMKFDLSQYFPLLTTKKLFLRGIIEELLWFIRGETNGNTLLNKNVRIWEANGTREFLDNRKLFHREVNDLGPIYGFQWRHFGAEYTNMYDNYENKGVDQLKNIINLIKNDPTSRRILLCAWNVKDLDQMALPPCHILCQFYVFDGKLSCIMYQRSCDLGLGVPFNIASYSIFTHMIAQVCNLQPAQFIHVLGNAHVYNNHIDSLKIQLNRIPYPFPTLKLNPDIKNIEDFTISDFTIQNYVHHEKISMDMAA

For assay [1], the target named is Bifunctional dihydrofolate reductase-thymidylate synthase (Plasmodium falciparum K1) (UniProt P13922). Put plainly: Inhibition of the S108N mutant of dihydrofolate reductase (DHFR)relative to Tmp.
For assay [2] the target is unchanged. Put plainly: Inhibition of the C59R+S108N mutant of dihydrofolate reductase (DHFR)relative to Tmp.

For the molecule `COc1cc(Cc2cnc(N)nc2N)ccc1OCc1cc(OC)c(OC)c(OC)c1`, the Relative activity amounted to 0.05 in assay [1] and 0.04 in assay [2].
